Measured values from several laboratories, pooled; numbers as filed in NIAID ChemDB.

Shared fields: tests in culture; species: Candida albicans; read by: broth dilution; measure: MIC

Blank or dashed fields: not listed here.

smiles	conditions	strain	result
O=C(N/N=C/c1ccc(Br)cc1)c1ccc(CNc2nc3ccccc3[nH]2)cc1	-	-	100 µg/mL
NCc1c(-c2c(-c3ccccc3)[nH]c3ccccc23)c(CN)c2nc3ccccc3n2c1N	-	MTCC 227	500 µg/mL
C[C@H]1[C@H](O)[C@@H](C)/C=C/C=C/C=C/C=C/C=C/C=C/C=C/[C@H](O[C@@H]2O[C@H](C)[C@@H](O)[C@H](N)[C@@H]2O)C[C@@H]2O[C@](O)(C[C@@H](O)C[C@@H](O)CC[C@H](O)[C@@H](O)C[C@@H](O)CC(=O)O[C@H]1C)C[C@H](O)[C@H]2C(=O)O	-	ATCC 90028	0.25 µg/mL
CCN1CC(C)(C)OC(=O)C1CC(=O)N(C)c1ccccc1	-	SC5314	>50 µg/mL
Oc1ccc(C=Nc2cc(Cl)ccc2O)c(O)c1	-	ATCC 10231	312 µg/mL
N#Cc1ccc(-c2[nH]c3ccccc3c2-c2c(CN)c(N)n3c(nc4ccccc43)c2CN)cc1	-	MTCC 227	500 µg/mL
Cc1ccc(C(O)c2cccc(C(=O)CCn3ccnc3)c2)cc1	-	RTCC 1003	>64 µg/mL
CC(=O)N1CC(C)(C)OC(=O)C1CC(=O)Nc1ccc(C(C)C)cc1	-	SC5314	>25 µg/mL
Cc1nc2c(=O)n(-c3ccc(S(=O)(=O)NC(=S)Nc4ccccc4)cc3)nc(C)c2s1	-	ATCC 10231	25 µg/mL
Oc1ccccc1C1OC[C@@H](COCc2ccccc2)O1	-	ATCC 10231	312.5 µg/mL
COC(=O)Nc1ccc2c(c1)nc(-c1ccccc1)n2[O-]	-	-	100 µg/mL
Cc1cc2c(cc1Cl)ncn2-c1ccc(-c2nc3ccccc3[nH]2)cc1	-	ATCC 10231	6.25 µg/mL
Oc1ccc(Cl)cc1N=Cc1cc(Cl)cc(Cl)c1O	-	ATCC 10231	3.9 µg/mL
Cc1nn(-c2ccc(S(=O)(=O)/N=c3\scc(-c4ccccc4)n3-c3ccc(F)cc3)cc2)c(=O)c2c(C)noc12	-	ATCC 10231	≥200 µg/mL
CC(=O)c1cn([C@@H]2O[C@H]([C@H](NC(=O)[C@@H](N)[C@H](C)[C@H](O)c3ccc(O)cn3)C(=O)O)[C@@H](O)[C@H]2O)c(=O)[nH]1	-	FP633	>50 µg/mL
CCOc1ccc(/C=N/NC(=O)c2ccc(CNc3nc4ccccc4[nH]3)cc2)cc1	-	-	50 µg/mL
Clc1ccccc1C(c1ccccc1)(c1ccccc1)n1ccnc1	-	ATCC 10231	6.25 µg/mL
CC(=O)OC12CCC(C(=O)C1)C1C(=O)N(CCCN3CCN(c4ccccn4)CC3)C(=O)C12	-	DSM 1886	>100 µM
O/N=C(/COc1cccc(Cl)c1)c1ccccc1	24 h	ATCC 10231	125 µg/mL
CC(=O)OC12CCC(C(=O)C1)C1C(=O)N(CCCCN3CCN(c4ccc(F)cc4)CC3)C(=O)C12	-	DSM 1886	>100 µM
Cc1cc2ncn(-c3ccc(-c4nc5ccccc5[nH]4)cc3)c2cc1C	-	ATCC 10231	6.25 µg/mL
COc1ccc(/C=N/NC(=O)c2ccc(CNc3nc4ccccc4[nH]3)cc2)cc1	-	-	50 µg/mL
CC1CC2=C(O1)c1ccccc1C(=O)C2=O	-	1	8 µg/mL
COc1ccc(OC/C(=N/O)c2ccccc2)cc1	24 h	ATCC 10231	>125 µg/mL
Cc1ccc(-n2ncc3c([nH]c4ccccc43)c2=O)cc1C	-	-	250 µg/mL
Oc1ccccc1C1O[C@@H](COCc2ccccc2)[C@H](COCc2ccccc2)O1	-	ATCC 10231	312.5 µg/mL
Cc1ccc2c(c1)nc1c(CN)c(-c3c(-c4ccc(Br)cc4)[nH]c4ccccc34)c(CN)c(N)n12	-	MTCC 227	500 µg/mL
O=C(O)c1ccc(/C=N/NC(=O)c2ccc(CNc3nc4ccccc4[nH]3)cc2)cc1	-	-	25 µg/mL
Cc1ccc(C(C)C)c(O)c1	-	ATCC10259	93000 µg/mL
N#Cc1ccc2c(c1)ncn2-c1ccc(-c2nc3ccccc3[nH]2)cc1	-	ATCC 10231	6.25 µg/mL
CC(C)c1ccc(NC(=O)CC2C(=O)OC(C)(C)CN2C2CC2)cc1	-	SC5314	>25 µg/mL
Oc1ccccc1C=Nc1cc(Cl)ccc1O	-	ATCC 10231	39 µg/mL
CC(C)(O)c1cn(-c2ccc(Cl)cc2)nn1	-	URM 4126	128 µg/mL
Nc1[nH]c(=O)ncc1F	-	ATCC 24433	4 µg/mL
c1ccc2[nH]c(-c3ccc(-n4cnc5ccccc54)cc3)nc2c1	-	ATCC 10231	6.25 µg/mL
Cc1nn(-c2ccc(S(=O)(=O)NC(=S)NC(=O)c3ccccc3)cc2)c(=O)c2c(C)noc12	-	ATCC 10231	≥200 µg/mL
OC(CCn1ccnc1)c1ccc(Br)cc1	-	RTCC1024	64 µg/mL
O=c1[nH]ncc2c1[nH]c1ccccc12	-	-	250 µg/mL
CC(=O)OC12CCC(C(=O)C1)C1C(=O)NC(=O)C12	-	DSM 1886	>100 µM
O=C(Nc1ccccc1)OCc1cc(-c2ccccn2)no1	-	-	200 µg/mL
[C-]#[N+][C@]12C(=C)C(C)(C)c3[nH]c4cccc5c4c3[C@]1(O)[C@H](CC[C@]2(C)C=C)C5(C)C	-	-	15.3 µM
CN(C)c1ccc(/C=N/NC(=O)c2ccc(CNc3nc4ccccc4[nH]3)cc2)cc1	-	-	50 µg/mL
O=C(COc1ccccc1)c1ccccc1	48 h	ATCC 10231	>125 µg/mL
Cc1ccc(-c2[nH]c3ccccc3c2-c2c(CN)c(N)n3c(nc4cc(C)ccc43)c2CN)cc1	-	MTCC 227	>1000 µg/mL
O=C(O[C@@H]1COC(=O)c2cc(O)c(O)c(O)c2-c2c(cc(O)c(O)c2O)C(=O)OC1C1OC(=O)c2cc(O)c(O)c(O)c2-c2c(O)c(O)c(O)c3c2C(=O)OC1[C@H]3O)c1cc(O)c(O)c(O)c1	-	SC5314	580 µg/mL
NCc1c(-c2c(-c3ccc(Cl)cc3)[nH]c3ccccc23)c(CN)c2nc3ccccc3n2c1N	-	MTCC 227	1000 µg/mL
Oc1ccc(Br)cc1C=Nc1cc(Cl)ccc1O	-	ATCC 10231	19.5 µg/mL
COc1ccccc1OCC(=O)c1ccccc1	24 h	ATCC 10231	>125 µg/mL
CCOc1ccc2nc3cc(N=C4NC(=O)/C(=C\c5ccc([N+](=O)[O-])cc5)S4)ccc3c(N)c2c1	-	ATCC 60193	500 µg/mL
O=C1N[C@@H](Cc2ccc(O)cc2)C(=O)N2CCC[C@H]12	-	MTCC 277	32 µg/mL
O=C(O)c1ccc2c(c1)ncn2-c1ccc(-c2nc3ccccc3[nH]2)cc1	-	ATCC 10231	12.5 µg/mL
COc1cccc(OCC(=O)c2ccccc2)c1	48 h	ATCC 10231	>125 µg/mL
NCc1c(-c2c(-c3ccc(F)cc3)[nH]c3ccccc23)c(CN)c2nc3ccccc3n2c1N	-	MTCC 227	>1000 µg/mL
COC(=O)N1CCOc2ccccc21	-	-	320 µg/mL
O=C(CCn1ccnc1)c1ccc(-c2ccccc2)cc1	-	RTCC1024	4 µg/mL
OC(Cn1cncn1)(Cn1cncn1)c1ccc(F)cc1F	-	clinical isolates susceptible	0.032–1 µg/mL
O=C(N/N=C/c1ccc(Cl)cc1)c1ccc(CNc2nc3ccccc3[nH]2)cc1	-	-	100 µg/mL
Cc1ccc(-c2[nH]c3ccccc3c2-c2c(CN)c(N)n3c(nc4ccccc43)c2CN)cc1	-	MTCC 227	1000 µg/mL
OC(CCn1ccnc1)c1cccc(C(O)c2ccc(Br)cc2)c1	-	RTCC1024	>64 µg/mL
O=C(N/N=C/c1ccccc1)c1ccc(CNc2nc3ccccc3[nH]2)cc1	-	-	50 µg/mL
COC(=O)Nc1ccc(N2CC(C)=C(C)CO2)cc1	-	-	100 µg/mL
NCc1c(-c2c(-c3ccc(Br)cc3)[nH]c3ccccc23)c(CN)c2nc3ccccc3n2c1N	-	MTCC 227	500 µg/mL
O=C(CCn1ccnc1)c1cccc(C(O)c2ccc(Br)cc2)c1	-	RTCC 1003	>64 µg/mL
NNc1n[nH]c(=O)c2[nH]c3ccccc3c12	-	-	250 µg/mL
Cc1n[nH]c(=O)c2c(C)noc12	-	ATCC 10231	≥200 µg/mL
COc1ccccc1N1CCN(CCCN2C(=O)C3C4CCC(OC(C)=O)(CC4=O)C3C2=O)CC1	-	DSM 1886	>100 µM
Cc1ccc2c(c1)nc1c(CN)c(-c3c(-c4ccc(Cl)cc4)[nH]c4ccccc34)c(CN)c(N)n12	-	MTCC 227	250 µg/mL
CCN1CC(C)(C)OC(=O)C1CC(=O)NCc1cccs1	-	SC5314	>25 µg/mL
O=C(CCn1ccnc1)c1ccc2ccccc2c1	-	RTCC 1003	>64 µg/mL
CC(C)c1ccc(NC(=O)CC2C(=O)OC(C)(C)CN2c2ccccc2)cc1	-	SC5314	>50 µg/mL
CC(C)C[C@@H]1NC(=O)[C@H]2CCCN2C1=O	-	MTCC 277	16 µg/mL
CCn1c2ccccc2c2cn[nH]c(=O)c21	-	-	250 µg/mL
CCN1CC(C)(C)OC(=O)C1CC(=O)NCc1cccc(C)c1	-	SC5314	12.5 µg/mL

Two numbers with a dash give a range or band. Lines come from different laboratories, so protocols vary.